A mixed list of measured activities; the numbers were collected in NIAID ChemDB.

Common to all: target-level tests

ICn is the concentration giving n% inhibition.

compound,strain or isolate,method,changes,measure,dose,organism,target,value
CCC(C)(C)C(=O)c1cn2c(c(O)c1=O)C(=O)N(Cc1cccc(Cl)c1)CC2,,ELISA,,IC50,,HIV-1,Integrase,0.01–0.1 µM
c1ccc2c(c1)CCN(c1nn3c(C4CC4)nnc3c3ccccc13)C2,98US_MSC5016,RT activity / fluorescence,,IC90,,HIV-1,Reverse transcriptase,4.04 µM
CC(C)(C#Cc1ccc(NC(=O)CSc2nnnn2-c2cc(C(C)(C)C)ccc2Cl)c(Cl)c1)C(=O)O,WT,PicoGreen / fluorescence,,IC50,,HIV-1,Reverse transcriptase,<1 µM
Nc1nc2c(ncn2[C@H]2CO[C@@H](COP(=O)(O)OP(=O)(O)OP(=O)(O)O)O2)c(=O)[nH]1,,radiometric,RT-M184V,fold resistance,,HIV,Reverse transcriptase,1.2
O=S(=O)(O)c1ccc(-c2c3nc(c(-c4ccc(S(=O)(=O)O)cc4)c4ccc([nH]4)c(-c4ccc(S(=O)(=O)O)cc4)c4nc(c(-c5ccc(S(=O)(=O)O)cc5)c5ccc2[nH]5)C=C4)C=C3)cc1,,,,IC50,,HIV-1,gp120,>60 µg/mL
CC(C)=CCN1Cc2cccc3[nH]c(=S)n(c23)C[C@@H]1C,,nucleotide incorporation,,Ki,,HIV,Reverse transcriptase,1.2 µM
Nc1ccn([C@H]2CC[C@@H](COP(=O)(O)OP(=O)(O)OP(=O)(O)O)O2)c(=O)n1,,nucleotide incorporation / radiometric,RT-F77L Q151M,IC50,,HIV,Reverse transcriptase,2.6 µM
COCCNC(=O)[C@@H](NC(=O)[C@H](Cc1ccc(OC)c(OC)c1OC)C[C@H](O)[C@H](Cc1ccccc1)NC(=O)OC(C)(C)C)C(C)C,,fluorescence,,IC50,,HIV-2,Protease,0.005 µM
C=Cc1c(C)c2cc3nc(cc4[nH]c(cc5nc(cc1[nH]2)C(C)=C5CO)c(C)c4CCC(=O)O)C(CCC(=O)O)=C3C,,,,inhibition,60 µg/mL,HIV-1,gp120,68.7%
CC(C)(CO)Oc1ccc(NC(=O)CSc2nnnn2-c2ccc(C3CC3)cc2Cl)c(Cl)c1,,PicoGreen / fluorescence,RT-K103 Y181C,IC50,,HIV-1,Reverse transcriptase,<1 µM
COc1ccc2c(c1)CCN(c1nn3c(C)nnc3c3ccccc13)C2,IIIB,RT activity / fluorescence,,IC50,,HIV-1,Reverse transcriptase,4.11 µM
C=Cc1c(C)c2cc3[nH]c(cc4nc(cc5nc(cc1[nH]2)C(C)=C5CCC(=O)O)C(CCC(=O)O)=C4C)c(C)c3C=C,,,,inhibition,60 µg/mL,HIV-1,gp120,55.8%
CC(=O)Nc1cn2ccn(Cc3cccc(Cl)c3)c(=O)c2c(O)c1=O,,ELISA,,IC50,,HIV-1,Integrase,0.01–0.1 µM
Nc1nc2c(ncn2[C@H]2CC[C@@H](COP(=O)(O)OP(=O)(O)OP(=O)(O)O)O2)c(=O)[nH]1,,nucleotide incorporation / radiometric,,IC50,,HIV,Reverse transcriptase,0.11 µM
Cc1nnc2c3c(c(N4CCc5ccccc5C4)nn12)C1CCC3CC1,IIIB,RT activity / fluorescence,,IC90,,HIV-1,Reverse transcriptase,19.4 µM
Nc1nc2c(ncn2[C@H]2CC[C@@H](COP(=O)(O)OP(=O)(O)OP(=O)(O)O)O2)c(=O)[nH]1,,nucleotide incorporation,RT-K263V,fold resistance,,HIV,Reverse transcriptase,1
CC(C)(C)c1ccc(-n2nnnc2SCC(=O)Nc2ccc(OCC(=O)Nc3cccc(O)c3)cc2Cl)c(Cl)c1,WT,PicoGreen / fluorescence,,IC50,,HIV-1,Reverse transcriptase,<1 µM
O=C1c2c(O)c(=O)ncn2CCN1Cc1cccc(Cl)c1,,ELISA,,IC50,,HIV-1,Integrase,0.01–0.1 µM
O=CC1OC(=O)c2cc(O)c(O)c(O)c2Oc2cc3c(c(O)c2O)-c2c(cc(O)c(O)c2O)C(=O)OCC2OC(OC(=O)c4cc(O)c(O)c(O)c4Oc4cc5c(c(O)c4O)-c4c(cc(O)c(O)c4O)C(=O)OC(C(O)COC5=O)C1OC(=O)c1cc(O)c(O)c(O)c1)C(OC(=O)c1cc(O)c(O)c(O)c1)C(OC(=O)c1cc(O)c(O)c(O)c1)C2OC3=O,,antigen,,IC50,,HIV-1,Capsid,3.1 µg/mL
CC(C)(N)C#Cc1ccc(NC(=O)CSc2nnnn2-c2cc(C(F)(F)F)ccc2Cl)c(Cl)c1F,WT,PicoGreen / fluorescence,,IC50,,HIV-1,Reverse transcriptase,<1 µM
C[n+]1ccc(-c2c3nc(c(-c4cc[n+](C)cc4)c4ccc([nH]4)c(-c4cc[n+](C)cc4)c4nc(c(-c5cc[n+](C)cc5)c5ccc2[nH]5)C=C4)C=C3)cc1,,,,IC50,,HIV-1,gp120,>60 µg/mL
CC(C)(C)c1ccc(-n2nnnc2SCC(=O)Nc2ccc(C(=O)NCCN3CCOCC3)cc2Cl)c(Cl)c1,WT,PicoGreen / fluorescence,,IC50,,HIV-1,Reverse transcriptase,<1 µM
Oc1ccc2c(c1)CN(c1nn3c(C4CC4)nnc3c3ccccc13)CC2,IIIB,RT activity / fluorescence,,IC50,,HIV-1,Reverse transcriptase,0.47 µM
Cc1ccc(-n2nnnc2SCC(=O)Nc2ccc(-c3ccc(O)cc3)cc2Cl)c(Cl)c1,WT,PicoGreen / fluorescence,,IC50,,HIV-1,Reverse transcriptase,<1 µM
COc1ccc(OC)c(C/C=C(\C)CC/C=C(\C)CC/C=C(\C)CC/C=C(\C)CC/C=C(\C)CCC=C(C)C)c1,,nucleotide incorporation,,IC90,,HIV-2,Reverse transcriptase,10 µM
CC(C)(C#Cc1ccc(NC(=O)CSc2nnnn2-c2cc(C(F)(F)F)ccc2Cl)c(Cl)c1F)NC(=O)c1cc[n+]([O-])cc1,,PicoGreen / fluorescence,RT-K103 Y181C,IC50,,HIV-1,Reverse transcriptase,<1 µM
Nc1ccc2c(c1)CN(c1nn3c(-c4cccs4)nnc3c3ccccc13)CC2,KER2008,RT activity / fluorescence,,IC50,,HIV-1,Reverse transcriptase,2.78 µM
CC(C)(C#Cc1ccc(NC(=O)CSc2nnnn2-c2ccc(C3CC3)cc2Cl)c(Cl)c1)NC(=O)CN1CCC(C(=O)O)CC1,WT,PicoGreen / fluorescence,,IC50,,HIV-1,Reverse transcriptase,<1 µM
C1=Cc2nc1c(-c1ccccc1)c1ccc([nH]1)c(-c1ccccc1)c1nc(c(-c3ccccc3)c3ccc([nH]3)c2-c2ccccc2)C=C1,,,,IC50,,HIV-1,gp120,>60 µg/mL
CC(C)(C)c1ccc(-n2nnnc2SCC(=O)Nc2ccc(C#CC3(O)CCC3)cc2Cl)c(Cl)c1,,PicoGreen / fluorescence,RT-K103 Y181C,IC50,,HIV-1,Reverse transcriptase,<1 µM
CC1=C(CCC(=O)O)c2cc3nc(cc4[nH]c(cc5[nH]c(cc1n2)c(CCC(=O)O)c5C)c(CCC(=O)O)c4C)C(CCC(=O)O)=C3C,,,,IC50,,HIV-1,gp120,>60 µg/mL
CSCCC(NC(=O)c1ccc(NC(=O)CSc2nnnn2-c2ccc(C(C)(C)C)cc2Cl)c(Cl)c1)C(=O)O,WT,PicoGreen / fluorescence,,IC50,,HIV-1,Reverse transcriptase,<1 µM
O=CC(O)C(OC(=O)c1cc(O)c(O)c(O)c1)C1OC(=O)c2cc(O)c(O)c(O)c2-c2c(cc(O)c(O)c2O)C(=O)OCC1O,,binding,,inhibition,6.25 µg/mL,HIV-1,gp120,70.5%
Cc1cc(C(F)(F)F)cc(-n2nnnc2SCC(=O)Nc2ccc(C#CC(C)(C)O)cc2Cl)c1Cl,,PicoGreen / fluorescence,RT-K103 Y181C,IC50,,HIV-1,Reverse transcriptase,<1 µM
CC(C)C(=O)c1cn2ccn(Cc3cccc(Cl)c3)c(=O)c2c(O)c1=O,,ELISA,,IC50,,HIV-1,Integrase,<0.01 µM
CC(C)(C)c1ccc(-n2nnnc2SCC(=O)Nc2ccc(C#CCN3CCCC3)cc2Cl)c(Cl)c1,,PicoGreen / fluorescence,RT-K103 Y181C,IC50,,HIV-1,Reverse transcriptase,<1 µM
O=C(OC[C@H]1O[C@@H](O)[C@@H]2OC(=O)c3cc(O)c(O)c(O)c3-c3c(cc(O)c(O)c3O)C(=O)O[C@H]2[C@@H]1OC(=O)c1cc(O)c(O)c(O)c1Oc1cc2c(c(O)c1O)-c1c(cc(O)c(O)c1O)C(=O)O[C@@H]1[C@@H](OC2=O)[C@H](OC(=O)c2cc(O)c(O)c(O)c2)O[C@@H]2COC(=O)c3cc(O)c(O)c(O)c3-c3c(cc(O)c(O)c3O)C(=O)O[C@@H]12)c1cc(O)c(OC(=O)c2cc(O)c(O)c(O)c2)c(O)c1,,antigen,,IC50,,HIV-1,Capsid,1.8 µg/mL
CCN(CC)CC#Cc1ccc(NC(=O)CSc2nnnn2-c2ccc(C(C)(C)C)cc2Cl)c(Cl)c1,WT,PicoGreen / fluorescence,,IC50,,HIV-1,Reverse transcriptase,<1 µM
FC(F)(F)c1nnc2c3ccccc3c(N3CCc4ccccc4C3)nn12,IIIB,RT activity / fluorescence,,IC90,,HIV-1,Reverse transcriptase,10.5 µM

6 of the rows above, restated:

| compound | strain or isolate | method | changes | measure | dose | organism | target | value |
|---|---|---|---|---|---|---|---|---|
| Nc1nc2c(ncn2[C@H]2CC[C@@H](COP(=O)(O)OP(=O)(O)OP(=O)(O)O)O2)c(=O)[nH]1 |  | nucleotide incorporation / radiometric |  | IC50 |  | HIV | Reverse transcriptase | 0.11 µM |
| CC(C)(C#Cc1ccc(NC(=O)CSc2nnnn2-c2ccc(C3CC3)cc2Cl)c(Cl)c1)NC(=O)CN1CCC(C(=O)O)CC1 | WT | PicoGreen / fluorescence |  | IC50 |  | HIV-1 | Reverse transcriptase | <1 µM |
| O=C(OC[C@H]1O[C@@H](O)[C@@H]2OC(=O)c3cc(O)c(O)c(O)c3-c3c(cc(O)c(O)c3O)C(=O)O[C@H]2[C@@H]1OC(=O)c1cc(O)c(O)c(O)c1Oc1cc2c(c(O)c1O)-c1c(cc(O)c(O)c1O)C(=O)O[C@@H]1[C@@H](OC2=O)[C@H](OC(=O)c2cc(O)c(O)c(O)c2)O[C@@H]2COC(=O)c3cc(O)c(O)c(O)c3-c3c(cc(O)c(O)c3O)C(=O)O[C@@H]12)c1cc(O)c(OC(=O)c2cc(O)c(O)c(O)c2)c(O)c1 |  | antigen |  | IC50 |  | HIV-1 | Capsid | 1.8 µg/mL |
| CC(C)(CO)Oc1ccc(NC(=O)CSc2nnnn2-c2ccc(C3CC3)cc2Cl)c(Cl)c1 |  | PicoGreen / fluorescence | RT-K103 Y181C | IC50 |  | HIV-1 | Reverse transcriptase | <1 µM |
| CCN(CC)CC#Cc1ccc(NC(=O)CSc2nnnn2-c2ccc(C(C)(C)C)cc2Cl)c(Cl)c1 | WT | PicoGreen / fluorescence |  | IC50 |  | HIV-1 | Reverse transcriptase | <1 µM |
| CC(=O)Nc1cn2ccn(Cc3cccc(Cl)c3)c(=O)c2c(O)c1=O |  | ELISA |  | IC50 |  | HIV-1 | Integrase | 0.01–0.1 µM |

Neighbouring rows are from separate reports. An empty or dashed field is not shown. a–b is a range or a potency band. Inhibition is in % at the dose shown (toxicity tests: loss of growth or viability). Fold resistance has wild type as its base.